Source: patent US7655216B2, “Vaccine for activating helper function of CD8+ Tcells” (University of Pittsburgh - Of the Commonwealth of Higher …, priority 2007, dated 2010)

System: SEB loaded DCs
Conditions: effector-type CD8+ T cells with perforin/GrB pathway blocked (CMA 100 nM), 48 hours co-culture; then J558-CD40L stimulation, ELISA

## Concanamycin A
  IL-12p70 production by DCs: enhanced ability to produce IL-12p70
